Experiments:
Assay in all cases: pull-down binding Z-score (relative to library population); higher = stronger binding
Settings in all cases: RNA library: Library-2
[1] = test system: TO-N3 (biotin conjugate)
Procedure, shortened: (§1)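 An RNA library (1 μg) carrying a Cy5 or Cy3 end label was heat-folded in phosphate/NaCl/KCl buffer, then incubated for 60 min at 25 °C with streptavidin beads loaded with 100 pmol of biotin-conjugated small molecule. The beads were washed three times, and bound RNA was released in hot SDS and hybridised to a DNA barcode microarray for 20 h at 55.5 °C. Each binding score was derived by subtracting the signal from beads without compound, averaging the barcoded replicate probes after removing the highest and lowest, and expressing the result as a Z-score relative to the library mean and standard deviation.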

[2] = test system: TO-3-N3-2 (biotin conjugate)
Procedure, shortened: as §1

[3] = test system: TO-N3-2 (biotin conjugate)
Procedure, shortened: as §1

[4] = test system: TO-3-N3 (biotin conjugate)
Procedure, shortened: as §1

| Sequence | pull-down binding Z-score [1] | pull-down binding Z-score [2] | pull-down binding Z-score [3] | pull-down binding Z-score [4] |
| --- | --- | --- | --- | --- |
| AGCCCGUCUUACACCGUGCGGCACAGGCACUAGUACUGAUGUCGUAUACAGGGCU [SHAPE_invivo_SARS-CoV-2_Motif_256] | -0.605 | -0.55 | 0.548 | -0.797 |
| AGCCUCAAAGAUUUUGGGACUACCAACUCAAACUGUUGAUUCAUCACAGGGCU | -0.349 | 0.0042 | -0.27 | -0.34 |
| AGCCUUGUAGUGACAAAGCU [DMSMaPseq_invitro_SARS-CoV-2_Motif_339] | 0.833 | 0.116 | -0.266 | 0.956 |
| AGCGUACUUCUUUUUCUUGCU [SHAPE_invitro_SARS-CoV-2_Motif_479] | -0.353 | 0.0268 | -0.536 | -0.355 |
| AGCUAUAGCCUCAGAGUUUAGUUCCCUUCCAUCAUAUGCAGCUUUUGCUACUGCUCAAGAAGCUUAUGAGCAGGCUGUUGCU [SHAPE_invivo_SARS-CoV-2_Multi_31_ComplexLevel_1] | -0.142 | 0.194 | 0.316 | -0.491 |
| AGCUAUGACCCAAAUGUAUAAACAGGCU [SHAPE_invitro_SARS-CoV-2_Motif_222] | -0.903 | -0.369 | -0.538 | -0.734 |
| AGCUGGUGCUGCAGCU [SHAPE_invitro_SARS-CoV-2_Motif_405] | -0.168 | -0.232 | 0.184 | -0.149 |
| AGCUGGUUUUGCU [SHAPE_invitro_SARS-CoV-2_Motif_247] | -1.15 | -0.261 | -1.27 | -0.688 |
| AGCUUUUUGCAGCAGAAACGCUCAAAGCU [SHAPE_invivo_SARS-CoV-2_Motif_314] | -0.206 | -0.189 | -0.327 | -0.324 |
| AGGAAAAGCAGGGCUCAGGGCCAGAGAGACUGGGCAUAGAACUAAGGAGGAUGGUGUCCUCCUGACUGCAUCUCUCUUCCCUCUCCCACCCCUUGCAG [hsa-mir-6892] | 0.661 | 0.297 | 1.12 | -0.00154 |
| AGGAAGAGAAUCAGCAACUGUGUUGCUGAUUAUUCUGUCCU [SHAPE_invivo_SARS-CoV-2_Motif_426] | -1.02 | -0.489 | -0.637 | -0.696 |
| AGGAAGGAAGUUCUGUUGAAUUAAAACACUUCUUCUUUGCU | -0.673 | -0.171 | -0.505 | -0.495 |
| AGGACCUGAGCAUAGUCUUGCCGAAUACCAUAAUGAAUCUGGCUUGAAAACCAUUCUUCGUAAGGGUGGUCGCACUAUUGCCUUUGGAGGCUGUGUGUUCU [SHAPE_invitro_SARS-CoV-2_Multi_5_ComplexLevel_1] | 0.567 | 0.0935 | 0.283 | 0.412 |
| AGGACCUGCCUAAAGAAAUCACUGUUGCUACAUCACGAACGCUUUCUUAUUACAAAUUGGGAGCUUCGCAGCGUGUAGCAGGUGACUCAGGUUUU | 0.225 | -0.0157 | 0.976 | -0.0595 |
| AGGACUUGUUCUUACCUUUCUUUUCCAAUGUUACUUGGUUCCAUGCUAUACAUGUCUCUGGGACCAAUGGUACUAAGAGGUUUGAUAACCCUGUCCU [DMSMaPseq_invitro_SARS-CoV-2_Motif_382] | -0.058 | -0.233 | -0.582 | 0.181 |
| AGGAUCCGAACCCAGGGGUGGGGGGUGGAGGCGGCUCCUGCGAUCGAAGGGGACUUGAGACUCACCGGCCGCACGCCAUGAGGGCCCUGUGGGUGCUGGGCCU [hsa-mir-3652] | 4.29 | 5.63 | 3.11 | 4.94 |
| AGGCAGAUGGGCUAUAUAAACGUUUUCGCUUUUCCGUUUACGAUAUAUAGUCUACUCUU | -0.6 | -0.148 | -0.414 | -0.726 |
| AGGCUAUUUUUGUACUUGUUACUUUGGCCU | -0.731 | -0.154 | -0.711 | -0.625 |
| AGGGCCGGUCGGCCGCCCCGGGUGCCGCGCGGUGCCGCCGGCGGCGGUGAGGCCCCGCGCGUGUGUCCCGGCUGCGGUCGGCCGCGCUCG [hsa-mir-3648-1_3648-2] | 1.21 | -0.298 | 2.33 | 0.802 |
| AGGGGCAAUUCUCCU [IAV_invivo_PB2_1_Motif_32+IAV_invivo_PB2_1_Motif_32] | -0.149 | -0.195 | -0.344 | 0.0161 |

| Sequence | pull-down binding Z-score [1] | pull-down binding Z-score [2] | pull-down binding Z-score [3] | pull-down binding Z-score [4] |
| --- | --- | --- | --- | --- |
| AGGGGUGUAUACUGCUGCCGUGAACAUGAGCAUGAAAUUGCUUGGUACACGGAACGUUCUGAAAAGAGCUAUGAAUUGCAGACACCUUU [SHAPE_invivo_SARS-CoV-2_Multi_2_ComplexLevel_1] | 1.22 | 0.713 | 0.407 | 1.1 |
| AGGGUGUUAUCACGCAUGAUGUUUCAUCUGCAAUUAACAGGCCACAAAUAGGCGUGGUAAGAGAAUUCCUUACACGUAACCCU [SHAPE_invitro_SARS-CoV-2_Multi_49_ComplexLevel_1] | -0.586 | -0.0901 | 0.333 | -0.742 |
| UUAUGAUUCAAUGAGUUAUGA | -1.32 | -0.758 | -1.52 | -0.887 |
| UUGCAAACUACACAAUUGGAAUUGUGUUAAUUGUGA [SHAPE_invivo_SARS-CoV-2_Motif_155] | -0.572 | -0.44 | -1.49 | -0.32 |
| UUGCAGCAGAAACGCUCAA [DMSMaPseq_invitro_SARS-CoV-2_Motif_298] | 0.136 | -0.0631 | 0.236 | 0.179 |
| UUGCAUAAUGUCUGAUAGAGACCUUUAUGACAA | -0.821 | -0.353 | -0.837 | -0.845 |
| UUGCCAAAAGGCUUCUACGCAGAAGGGAGCAGAGGCGGCAGUCAAGCCUCUUCUCGUUCCUCAUCACGUAGUCGCAACAGUUCAAGAAAUUCAACUCCAGGCAG | -0.023 | -0.594 | 0.572 | -0.66 |
| UUGCCAACCAAUUUAAUAGUGCUAUUGGCAA | -1.1 | -0.209 | -0.771 | -0.641 |
| UUGCUAUUCAUGCAG [SHAPE_invitro_SARS-CoV-2_Motif_425] | 0.334 | 0.498 | -0.217 | 0.339 |
| UUGCUGUAGUUGUCUCAAGGGCUGUUGUUCUUGUGGAUCCUGCUGCAA | 0.098 | -0.236 | 0.0832 | -0.067 |
| UUGGAGGAAUACAAAUCCAA [DMSMaPseq_invitro_SARS-CoV-2_Motif_375] | -0.481 | -0.252 | -0.014 | -0.233 |
| UUGGAUGACAAAGAUCCAA | -1.01 | -0.741 | -1.13 | -0.56 |
| UUGGUGAGUCCGAUACUUACCUG [U1snRNP5ss-15] | 0.333 | -0.312 | -0.07 | 0.638 |
| UUGUGCUAGUGAGUACACUGGUAAUUACCAGUGUGGUCACUAUAAACAUAUAACUUCUAAAGAAACUUUGUAUUGCAUAG | -0.144 | -0.099 | -0.634 | -0.188 |
| UUGUGGUGAAACUUCAUGGCAG | -0.269 | -0.3 | 0.0697 | -0.378 |
| UUGUUACGAUGGUGGCUGUAUUAAUGCUAACCAAGUCAUCGUCAACAA | -0.0931 | 0.0036 | 0.952 | -0.368 |
| UUGUUGUGAUGAUGAUUAUUUCAAUAA | -1.15 | -0.219 | -0.899 | -1.18 |
| UUUAAACACGCUUGUUAAACAACUUAGCUCCAAUUUUGGUGCAAUUUCAAGUGUUUUAAA [DMSMaPseq_invitro_SARS-CoV-2_Motif_435] | -1.16 | -0.436 | -0.709 | -1.04 |
| UUUAACUUCUAUUAAAUGGGCAGAUAACAACUGUUAUCUUGCCACUGCAUUGUUAACACUCCAACAAAUAGAGUUGAA | 0.142 | 0.0917 | -0.68 | 0.27 |
| UUUACGCAUAUUUGCGUAAA [SHAPE_invitro_SARS-CoV-2_Motif_288] | -0.674 | -0.466 | -1.54 | -0.428 |
